Pooled drug test results. Numbers come from NIAID ChemDB, via PubChem.

Shared fields: target-level tests; agent: HIV-1; protein: Protease; read by: fluorescence; endpoint: Ki

Blank or dashed fields: not listed here. Conditions beyond the fields shown may differ between rows.

| structure | changes | strain or isolate | value |
|---|---|---|---|
| CC[C@H](C)[C@H](NC(C)=O)C(=O)N[C@@H](CO)C(=O)N[C@H](C(=O)N[C@@H](CCC(=O)O)C(=O)N[C@@H](CC(C)C)C(=O)O)c1ccc(OC(=O)c2ccccc2)cc1 | - | - | 0.6 µM |
| Cc1cccc(C)c1OCC(=O)N[C@@H](Cc1ccccc1)[C@H](O)CN1CC[C@@H](Sc2ccncc2)C[C@H]1C(=O)NC(C)(C)C | PR-I84V | - | 0.000077 µM |
| O=C1N(Cc2cccc(-c3nn[nH]n3)c2)[C@H](Cc2ccccc2)[C@H](O)[C@@H](O)[C@@H](Cc2ccccc2)N1Cc1cccc(-c2nn[nH]n2)c1 | - | RF | 0.0066 µM |
| CNC(=O)[C@@H](NC(=O)[C@H](Sc1ccccc1F)[C@H](O)[C@@H](O)[C@@H](Sc1ccccc1F)C(=O)N[C@H](C(=O)NC)C(C)C)C(C)C | - | - | 0.0036 µM |
| O=Cc1cccc(CN2C(=O)N(Cc3cccc(C=O)c3)[C@H](Cc3ccccc3)[C@H](O)[C@@H](O)[C@H]2Cc2ccccc2)c1 | - | RF | 0.00044 µM |
| CCCCCCCC(=O)N[C@@H](Cc1ccc(O)cc1)C(=O)N[C@@H](CCC(=O)O)C(=O)N[C@H](C=O)CC(C)C | - | - | 1 µM |
| CC(C)(O)c1ccc(CN2C(=O)N(Cc3ccc(C(C)(C)O)cc3)[C@H](Cc3ccccc3)[C@H](O)[C@@H](O)[C@H]2Cc2ccccc2)cc1 | - | - | 0.0022 µM |
| CC[C@H](C)[C@H](NC(C)=O)C(=O)N[C@@H](CO)C(=O)N[C@@H](Cc1ccc2ccccc2c1)C(=O)N[C@@H](CCC(=O)O)C(=O)N[C@@H](CC(C)C)C(=O)O | - | - | 0.26 µM |
| O=C(NCCO)[C@H](OCc1ccccc1)[C@H](O)[C@@H](O)[C@@H](OCc1ccccc1)C(=O)N[C@H]1c2ccccc2C[C@H]1O | - | - | 0.2 µM |
| O=C1N[C@H](Cc2ccccc2)[C@H](O)[C@@H](O)[C@@H](Cc2ccccc2)N1Cc1cccc(-c2ccn[nH]2)c1 | - | RF | 0.00026 µM |
| CC(C)CN(C[C@@H](O)[C@H](Cc1ccccc1)NC(=O)[C@@H](NC(=O)CNCc1cccc(F)c1)C(C)(C)C)S(=O)(=O)c1cccc(N)c1 | - | - | 0.000012 µM |
| CCC(Cc1ccccc1)c1cc(O)c(C(CC)c2ccccc2)c(=O)o1 | - | - | 0.038 µM |
| CCCC1(CCc2ccccc2)CC(O)=C(C(c2cccc(NS(=O)(=O)c3ccc(C#N)cn3)c2)C(C)(C)C)C(=O)O1 | - | - | 0.019 µM |
| CC(C)[C@H](NC(=O)N(C)Cc1ccccn1)C(=O)N[C@@H](Cc1ccccc1)[C@H](O)[C@@H](O)[C@H](Cc1ccccc1)NC(=O)[C@@H](NC(=O)N(C)Cc1ccccn1)C(C)C | - | - | 0.000077 µM |
| CC[C@H](C)[C@@H]1NC(=O)[C@@H](NC[C@@H](O)[C@H](Cc2ccccc2)NC(=O)[C@@H](NC(=O)[C@H](CC(C)C)NC(C)=O)C(C)C)Cc2ccc(cc2)OCCCNC1=O | - | - | 0.0006 µM |
| CC(C)[C@H](NC(=O)[C@H](C)NC(=O)OCc1ccccc1)C(=O)N[C@@H](Cc1ccccc1)C[C@H](O)[C@H](Cc1ccccc1)NC(=O)OCc1cncs1 | - | - | 0.003 µM |
| CC(C)CN([C@H](CO)CCCNC(=O)[C@H](Cc1cccc2ccccc12)NC(=O)CC(F)(F)F)S(=O)(=O)c1ccc(N)cc1 | - | NL4-3 | 0.0016 µM |
| CC(C)[C@H](NC(=O)N(C)Cc1ccccn1)C(=O)N[C@@H](Cc1ccccc1)[C@@H](O)[C@H](O)[C@H](Cc1ccccc1)NC(=O)[C@@H](NC(=O)N(C)Cc1ccccn1)C(C)C | - | - | 0.001 µM |
| CC(C)C[C@H](NC(=O)[C@@H](NC(=O)[C@H](C)NC(=O)OCc1ccccc1)C(C)C)[C@@H](O)[C@H](O)[C@H](CC(C)C)NC(=O)[C@@H](NC(=O)[C@H](C)NC(=O)OCc1ccccc1)C(C)C | - | - | 0.0065 µM |
| CC(C)[C@H](NC(=O)N(C)Cc1ccccn1)C(=O)N[C@@H](Cc1ccccc1)[C@H](O)[C@H](O)[C@H](Cc1ccccc1)NC(=O)[C@@H](NC(=O)N(C)Cc1ccccn1)C(C)C | PR-M46I | - | 0.00012 µM |
| CCCC1(CCc2ccccc2)CC(O)=C(C(c2cccc(NS(=O)(=O)c3ccc(C(F)(F)F)cn3)c2)C(C)(C)C)C(=O)O1 | - | - | 0.043 µM |
| CCCCCCCCCCCCCCCC(=O)N[C@@H](Cc1ccc(O)cc1)C(=O)N[C@@H](CCC(=O)O)C(=O)N[C@@H](Cc1ccc(O)cc1)C(=O)O | - | - | 2 µM |
| CC(=O)c1cccc(CN2C(=O)N(Cc3cccc(C(C)=O)c3)[C@H](Cc3ccccc3)[C@H](O)[C@@H](O)[C@H]2Cc2ccccc2)c1 | - | RF | 0.00006 µM |
| CC[C@H](C)[C@@H]1NC(=O)[C@@H](NC[C@H](O)[C@H](Cc2ccccc2)NC(=O)[C@@H](NC(=O)[C@H](CC(C)C)NC(C)=O)C(C)C)Cc2ccc(cc2)OCCCNC1=O | - | - | 0.0006 µM |
| CCC(C)[C@H](NC(=O)CCCCCCCCCCCCCCC(=O)N[C@H](C(=O)N[C@@H](CC(C)C)C(=O)N[C@@H](CC(N)=O)C(=O)N[C@@H](Cc1ccccc1)C(=O)O)C(C)O)C(=O)N[C@H](C(=O)N[C@@H](CC(C)C)C(=O)N[C@@H](Cc1c[nH]c2ccccc12)C(=O)O)C(C)O | - | - | 0.67 µM |
| CC(C)CNC(=O)[C@H](OCc1ccccc1)[C@H](O)[C@@H](O)[C@@H](OCc1ccccc1)C(=O)N[C@H]1c2ccccc2C[C@H]1O | - | - | 0.07 µM |
| CC[C@H](C)[C@H](NC(=O)[C@H](Cc1ccccc1)NC[C@@H](O)[C@H](Cc1ccccc1)NC(=O)[C@@H](NC(=O)[C@H](CC(C)C)NC(C)=O)C(C)C)C(=O)N[C@H](C(N)=O)C(C)C | - | - | 0.0015 µM |
| C[C@H](NC(=O)OCc1ccccc1)C(=O)N[C@@H](CC(N)=O)C(=O)N[C@@H](Cc1ccccc1)[C@H](O)CN1C[C@H]2CCCC[C@H]2C[C@H]1C(=O)NC(C)(C)C | - | - | 0.0113 µM |
| CC[C@H](C)[C@H](NC(=O)[C@@H]1CCCN1C[C@@H](O)[C@H](Cc1ccccc1)NC(=O)[C@H](CC(N)=O)NC(=O)[C@H](CC(C)C)NC(C)=O)C(=O)N[C@H](C(N)=O)C(C)C | - | - | 0.018 µM |
| O=C(N[C@H]1c2ccccc2C[C@H]1O)[C@H](OCc1ccccc1)[C@H](O)[C@@H](O)[C@@H](OCc1ccccc1)C(=O)N[C@H]1c2ccccc2C[C@H]1O | - | - | 0.0004 µM |
| CC(C)[C@H](NC(=O)N(C)Cc1ccccn1)C(=O)N[C@@H](Cc1ccccc1)[C@@H](O)[C@H](O)[C@H](Cc1ccccc1)NC(=O)[C@@H](NC(=O)N(C)Cc1ccccn1)C(C)C | PR-R8Q | - | 0.023 µM |
| CC[C@H](C)[C@H](NC(=O)[C@H](Cc1ccccc1)NC[C@H](O)[C@H](Cc1ccccc1)NC(=O)[C@@H](NC(=O)[C@H](CC(C)C)NC(C)=O)C(C)C)C(=O)N[C@H](C(N)=O)C(C)C | - | - | 0.0015 µM |
| CC(C)(CCN)CN(C[C@@H](O)[C@H](Cc1ccccc1)NC(=O)O[C@H]1CO[C@H]2OCC[C@H]21)S(=O)(=O)c1ccc(N)cc1 | - | - | <0.001 µM |
| CC(C)[C@H](NC(=O)N(C)Cc1ccccn1)C(=O)N[C@@H](Cc1ccccc1)C[C@H](O)[C@H](Cc1ccccc1)NC(=O)[C@@H](NC(=O)N(C)Cc1ccccn1)C(C)C | - | - | 0.000035 µM |
| O=C1N(Cc2ccc(CO)cc2)[C@H](COc2ccccc2)[C@H](O)[C@@H](O)[C@@H](COc2ccccc2)N1Cc1ccc(CO)cc1 | PR-L10F I84V PR-L90M | IIIB | 0.00017 µM |
| CC(=O)N[C@@H](Cc1ccccc1)C(=O)N[C@@H](CO)C(=O)N[C@@H](Cc1ccc(O)cc1)C(=O)N[C@@H](CCC(=O)O)C(=O)N[C@@H](CC(C)C)C(=O)O | - | - | 0.9 µM |
| CC(C)(O)c1cccc(CN2C(=O)N(Cc3cccc(C(C)(C)O)c3)[C@H](Cc3ccccc3)[C@H](O)[C@@H](O)[C@H]2Cc2ccccc2)c1 | - | - | 0.000067 µM |
| CC(C)[C@H](NC(=O)[C@H](Cc1ccccc1)NC(=O)OCc1ccccc1)C(=O)N[C@@H](Cc1ccccc1)[C@@H](O)[C@@H](O)[C@@H](Cc1ccccc1)NC(=O)[C@@H](NC(=O)[C@H](Cc1ccccc1)NC(=O)OCc1ccccc1)C(C)C | - | - | 0.0026 µM |
| CNC(=O)[C@@H](NC(=O)[C@H](OCc1ccccc1)[C@H](O)[C@@H](O)[C@@H](OCc1ccccc1)C(=O)N[C@H]1c2ccccc2C[C@H]1O)C(C)C | - | - | 0.0002 µM |
| CO/C(=N\[N+](=O)[O-])NCCCC(C)(C)CN(C[C@@H](O)[C@H](Cc1ccccc1)NC(=O)O[C@H]1CO[C@H]2OCC[C@H]21)S(=O)(=O)c1ccc(OC)cc1 | - | - | <0.001 µM |
| O=C1N(Cc2cccc(-c3ccn[nH]3)c2)[C@H](Cc2ccccc2)[C@H](O)[C@@H](O)[C@@H](Cc2ccccc2)N1Cc1cccc(-c2ccn[nH]2)c1 | - | RF | 0.000027 µM |
| CC(C)C[C@H](NC(=O)[C@@H](NC(=O)[C@H](Cc1ccccc1)NC(=O)OCc1ccccc1)C(C)C)[C@@H](O)[C@H](O)[C@H](CC(C)C)NC(=O)[C@@H](NC(=O)[C@H](Cc1ccccc1)NC(=O)OCc1ccccc1)C(C)C | - | - | 0.0055 µM |